Experimental findings from PMC8397897 are described below.

As usually defined, the Kd is the equilibrium constant for the complex coming apart.

Data set [1] addresses DENV capsid protein (DENVC) (Dengue virus 2 strain 16681) (UniProt O09234). The data set can be described thus: fluorescence anisotropy. As to conditions: recombinant protein, residues 1-100, label: 5' Cy5. On the technique in general: Polarisation of emitted light reports the rotation of a fluorescent probe.
Data set [2] has the same target. The data set can be described thus: confocal microscopy recruitment to GUV. As to conditions: ERmix GUVs; printed with U although named ssDNA; chemistry ambiguous; recombinant protein; residues 1-100; label: 5' FITC; single-stranded DNA.

The exact form of at least one protein or probe is not confirmed. For part of these data: At least one verdict rests on a figure or table, not on a statement of the authors.

In the case of “AAACTATTATTACTCATTTTCCGCCAGCAGTCAACTTCGATTTAATTCGTAAACAGATCT [Cy5-DNA]”, the Kd in data set [1] (single-stranded DNA) was 100 nM.

In the case of “CAUCAUGCAGGACAGUCGGAUCGCAGUCAG [Cy5-RNA]”, the Kd in data set [1] is 100 nM.

Consider “GGACAGGAAUUAAUAGUAGCUGUCC [FITC-ssDNASel25]”, for which the binding result in data set [2] is listed as “binds”.
